Anti-infective test results gathered from many reports (values: NIAID ChemDB through PubChem).

Common to all: tests in culture

Two numbers with a dash give a range or band. A number after MIC or MFC names an inhibition level or a share of isolates. Percent inhibition refers to the dose given; in toxicity tests it is the harm to the cells. An empty or dashed field is not shown. Rows are shuffled and stem from different studies.

| SMILES | species | strain or isolate | method | conditions | measure | tested at | value |
|---|---|---|---|---|---|---|---|
| Cc1nc2ccc(Cl)cn2c1C(=O)NCc1ccc(N2CCC(c3ccc(OC(F)(F)F)cc3)CC2)c(F)c1.Cl | Mycobacterium avium |  | fluorescence |  | inhibition | 0.012 µM | 85% |
| CCCCCCCCCN(CCCCCCCCC)C(=O)NC(CCC(=O)O)(CCC(=O)O)CCC(=O)O | Mycobacterium marinum | ATCC 927 |  |  | MIC |  | 35 µg/mL |
| CCc1nc2cc(F)ccn2c1C(=O)NCc1ccc(C2CCN(c3ccc(C(C)(C)C)cc3)CC2)cc1F.Cl | Mycobacterium avium |  | fluorescence |  | inhibition | 0.015 µM | 85% |
| CC[C@H]1OC(=O)[C@H](C)[C@@H](O[C@H]2C[C@@](C)(OC)[C@@H](OC(C)=O)[C@H](C)O2)[C@H](C)[C@@H](O[C@@H]2O[C@H](C)C[C@H](N(C)C)[C@H]2OC(=O)NNCc2cccc(OC)c2)C(C)(O)C[C@@H](C)/C(=N\OCCCC2CCCCC2)[C@H](C)[C@@H](O)[C@]1(C)O | Mycobacterium avium complex | 20092 (clarithromycin-resistant) |  |  | MIC |  | 0.78 µg/mL |
| CCCCCCCCCCCCCCCCCCCCCOC(=O)NC(C)(CCC(=O)O)CCC(=O)O | Mycobacterium chelonae | EO-P-1 |  |  | MIC |  | 177 µg/mL |
| CCc1nc2cc(Cl)ccn2c1C(=O)NCc1ccc(N2CCN(c3ccc(OC(F)(F)F)cc3)[C@H](C)C2)c(F)c1.Cl | Mycobacterium avium |  | fluorescence |  | inhibition | 0.62 µM | 85% |
| COc1ccc2oc(=O)n(-c3cccc(Cl)c3)c(=S)c2c1 | Mycobacterium kansasii | 6509/96 |  | 14 d | MIC |  | 16 µM |
| CC1(C)N=C(N)N=C(N)N1OCCCOc1cc(Cl)c(Cl)cc1Cl | Mycobacterium avium complex | KT |  |  | MIC |  | ≤0.5 µg/mL |
| CCc1nc(N)nc(N)c1-c1ccc(Cl)cc1 | Mycobacterium avium complex | DW19 |  |  | MIC |  | 32 µg/mL |
| O=C(NCc1ccc(-c2cccnc2)cc1)c1c(Cl)nc2ccccn12 | Mycobacterium ulcerans |  | fluorescence |  | MIC50 |  | 1–10 µg/mL |
| CCCCCCCCCCCCCCCOC(=O)NC(CCC(=O)O)(CCC(=O)O)CCC(=O)O | Mycobacterium chelonae | EO-P-1 |  |  | MIC |  | 36 µg/mL |
| Cc1nc2ccc(Cl)cn2c1C(=O)NCc1ccc(N2CCC(c3ccc(OC(F)(F)F)cc3)CC2)cc1 | Mycobacterium avium |  | fluorescence |  | inhibition | 0.012 µM | 85% |
| CC[C@H]1OC(=O)[C@H](C)[C@@H](OC2C[C@@](C)(OC)[C@@H](OC(=O)CCCc3ccccc3)[C@H](C)O2)[C@H](C)[C@@H](O[C@@H]2O[C@H](C)C[C@H](N(C)C)[C@H]2O)C(C)(O)C[C@@H](C)/C(=N\OCCCOc2ccccc2)[C@H](C)[C@@H](O)[C@]1(C)O | Mycobacterium avium complex | 20092 (clarithromycin-resistant) |  |  | MIC |  | 3.13 µg/mL |
| COc1ccc2oc(=S)n(-c3ccc(C)cc3)c(=S)c2c1 | Mycobacterium kansasii | 6509/96 |  | 14 d | MIC |  | 8 µM |
| CCc1nc2ccc(Cl)cn2c1C(=O)NCc1ccc(N2CCC(c3ccc(OC(F)(F)F)cc3)CC2)cc1 | Mycobacterium bovis BCG |  | turbidity |  | MIC50 |  | 0.0015 µM |
| Fc1cccc(-n2c(=S)oc3ccc(Cl)cc3c2=S)c1 | Mycobacterium kansasii | My 235/80 |  | 21 d | MIC |  | 16 µM |
| CC[C@H]1OC(=O)[C@H](C)[C@@H](O[C@H]2C[C@@](C)(OC)[C@@H](OC(C)=O)[C@H](C)O2)[C@H](C)[C@@H](O[C@@H]2O[C@H](C)C[C@H](N(C)C)[C@H]2OC(=O)NN)C(C)(O)C[C@@H](C)/C(=N\OCCCC2CCCCC2)[C@H](C)[C@@H](O)[C@]1(C)O | Mycobacterium avium complex | 20039 (clarithromycin-susceptible) |  |  | MIC |  | 3.13 µg/mL |
| O=c1oc2ccc(F)cc2c(=S)n1-c1ccc(F)cc1 | Mycobacterium kansasii | My 235/80 |  | 21 d | MIC |  | 16 µM |
| CCCC(=O)O[C@H]1[C@H](C)OC(O[C@H]2[C@H](C)[C@@H](O[C@@H]3O[C@H](C)C[C@H](N(C)C)[C@H]3O)C(C)(O)C[C@@H](C)/C(=N\OCCCOc3ccccc3)[C@H](C)[C@@H](O)[C@](C)(O)[C@@H](CC)OC(=O)[C@@H]2C)C[C@@]1(C)OC | Mycobacterium avium complex | 20039 (clarithromycin-susceptible) |  |  | MIC |  | 1.56 µg/mL |
| CCCCCCCC(CCCCCCC)OC(=O)NC(CCC(=O)O)(CCC(=O)O)CCC(=O)O | Mycobacterium chelonae | EO-P-1 |  |  | MIC |  | 105 µg/mL |
| Cc1ccn2c(C(=O)NCc3ccc(C4CCN(c5ccc(OC(F)(F)F)cc5)CC4)c(F)c3)c(C(F)(F)F)nc2c1 | Mycobacterium avium |  | fluorescence |  | inhibition | 0.057 µM | 85% |
| CCCCCCCCCCCC(CCCCCCCCCCC)NC(=O)NC(CCC(=O)O)(CCC(=O)O)CCC(=O)O | Mycobacterium marinum | ATCC 927 |  |  | MIC |  | 424 µg/mL |
| CC[C@H]1OC(=O)[C@H](C)[C@@H](O[C@H]2C[C@@](C)(OC)[C@@H](OC(C)=O)[C@H](C)O2)[C@H](C)[C@@H](O[C@@H]2O[C@H](C)C[C@H](N(C)C)[C@H]2O)C(C)(O)C[C@@H](C)/C(=N\OC)[C@H](C)[C@@H](O)[C@]1(C)O | Mycobacterium avium complex | 20092 (clarithromycin-resistant) |  |  | MIC |  | >50 µg/mL |
| O=c1oc2ccc(Br)cc2c(=S)n1-c1ccc(F)cc1 | Mycobacterium kansasii | 6509/96 |  | 21 d | MIC |  | 16 µM |
| COc1ccn2nc(C)c(C(=O)NCc3ccc(N4CCN(c5ccc(OC(F)(F)F)cc5)[C@@H](C)C4)c(F)c3F)c2c1.Cl | Mycobacterium avium |  | fluorescence |  | inhibition | 0.049 µM | 85% |
| CC[C@H]1OC(=O)[C@H](C)[C@@H](OC2C[C@@](C)(OC)[C@@H](OC(=O)CCc3ccccc3)[C@H](C)O2)[C@H](C)[C@@H](O[C@@H]2O[C@H](C)C[C@H](N(C)C)[C@H]2O)C(C)(O)C[C@@H](C)/C(=N\OCCCOc2ccccc2)[C@H](C)[C@@H](O)[C@]1(C)O | Mycobacterium avium complex | 20039 (clarithromycin-susceptible) |  |  | MIC |  | 0.78 µg/mL |
| CCCCCCCCCCCCCCCCOC(=O)NC(C)(CCC(=O)O)CCC(=O)O | Mycobacterium marinum | ATCC 927 |  |  | MIC |  | 144 µg/mL |
| O=C(NCc1ccc(N2CCOCC2)cc1C(F)(F)F)c1c(Cl)nc2ccccn12 | Mycobacterium ulcerans |  | fluorescence |  | MIC50 |  | >10 µg/mL |
| Cc1nc2ccc(C#N)cn2c1C(=O)NCc1ccc(N2CCN(c3ccc(OC(F)(F)F)cc3)[C@@H](C)C2)c(F)c1.Cl | Mycobacterium avium |  | fluorescence |  | inhibition | 0.5 µM | 85% |
| CO[C@H]1/C=C/O[C@@]2(C)Oc3c(C)c(O)c4c(O)c(c(/C=N/N5CCN(C6CCCC6)CC5)c(O)c4c3C2=O)NC(=O)/C(C)=C\C=C\[C@H](C)[C@H](O)[C@@H](C)[C@@H](O)[C@@H](C)[C@H](OC(C)=O)[C@@H]1C | Mycobacterium avium intracellulare | 12-Feb |  |  | MIC |  | 0.25 µg/mL |
| Cc1cn2c(C(=O)NCc3ccc(Oc4cccc(C(F)(F)F)c4)cc3)c(C)nc2s1 | Mycobacterium avium |  | fluorescence |  | inhibition | 0.61 µM | 85% |
| Cc1cc(CNC(=O)c2c(Cl)nc3ccccn23)ccc1N(C)C | Mycobacterium ulcerans |  | fluorescence |  | MIC50 |  | 0.01–0.1 µg/mL |
| CCCCCCCCCCCC(CCCCCCCCCCC)OC(=O)NC(CCC(=O)O)(CCC(=O)O)CCC(=O)O | Mycobacterium chelonae | EO-P-1 |  |  | MIC |  | 72 µg/mL |
| CC[C@H]1OC(=O)[C@H](C)[C@@H](OC2C[C@@](C)(OC)[C@@H](OC(=O)Cc3ccccc3)[C@H](C)O2)[C@H](C)[C@@H](O[C@@H]2O[C@H](C)C[C@H](N(C)C)[C@H]2O)C(C)(O)C[C@@H](C)/C(=N\OCCCOc2ccccc2)[C@H](C)[C@@H](O)[C@]1(C)O | Mycobacterium avium complex | 20092 (clarithromycin-resistant) |  |  | MIC |  | 3.13 µg/mL |
| C[C@H]1CN(c2ccc(CNC(=O)c3c(C(F)(F)F)nc4ccc(Cl)cn34)cc2F)CCN1c1ccc(OC(F)(F)F)cc1 | Mycobacterium avium |  | fluorescence |  | inhibition | 0.032 µM | 85% |